Compound potency records, mixed from different reports. Data source: NIAID ChemDB in PubChem.

Shared fields: tests in culture; species: Mycobacterium tuberculosis

MIC bound comes from a single tested concentration.

SMILES,method,strain,measure,dose,result
[N-]=[N+]=Nc1ccc(S(=O)(=O)c2ccc(N=[N+]=[N-])cc2)cc1,,H37Rv,MIC,,25 µg/mL
Cn1cnc([N+](=O)[O-])c1N1CCN(c2ccccc2)CC1,resazurin,H37Rv,MIC bound,,>6.25 µg/mL
CCOC(=O)Nc1cc(NCC(O)CN(C)C)c([N+](=O)[O-])c(N)n1,,H37Rv,EC50,,>12.5 µg/mL
CCCCC(CC)CN1CN(CC(CC)CCCC)CC(C)(NCCN[C@H](CO)CC(C)C)C1,,,MIC,,25 µM
COc1ccc2cccnc2c1-n1c(C)ccc1C,,H37Rv,MIC,,50 µg/mL
CO[C@H]1/C=C/O[C@@]2(C)Oc3c(C)c(O)c4c(=O)c(c5oc6cc(N7CCN(CC(C)C)CC7)cc(=O)c6nc5c4c3=C2O)NC(=O)/C(C)=C\C=C\[C@H](C)[C@H](O)[C@@H](C)[C@@H](O)[C@@H](C)[C@H](OC(C)=O)[C@@H]1C,,35 (rifampin-resistant),MBC,,0.1 µg/mL
COc1cc2nc(N3CCN(C(=O)c4ccco4)CC3)nc(N)c2cc1OC,BACTEC,H37Rv,inhibition,12.5 µg/mL,53%
C[C@@H]1[C@@H](NCCNCC(c2ccccc2)c2ccccc2)C[C@H]2C[C@@H]1C2(C)C,,,MIC,,3.13 µM
CCOC(=O)CCCCC1SCC(C(=O)OCC)C1=O,,H37Rv,MIC,,100 µg/mL
NC(=O)NN=C1CSSC1,BACTEC,H37Rv,MIC bound,,≤12.5 µg/mL
O=C(c1ccccc1)c1ncc(-c2ccccc2)[nH]1,,H37Rv,MIC,,>100 µg/mL
CC(NCCNCc1ccc(C(F)(F)F)cc1)c1cccc2ccccc12,,,MIC,,12.5 µM
CC(=O)c1cnc(NN)nc1C,BACTEC,H37Rv,MIC bound,,>12.5 µg/mL
ON=C1c2ccccc2-c2ccccc21,,H37Rv,MIC,,50 µg/mL
CCCCC(CC)CN1CN(CC(CC)CCCC)CC(C)(NCCNCCc2ccc(O)c(O)c2)C1,,,MIC,,12.5 µM
CCOC(=O)Nc1cc(NCCc2ccc(S(N)(=O)=O)cc2)c2nccnc2n1,,H37Rv,EC50,,>12.5 µg/mL
Cc1c(O)c(=O)ccn1CCCl,BACTEC,H37Rv,MIC bound,,>12.5 µg/mL
OCc1ccccc1Sc1ccccc1CNCCNCCCc1ccccc1,,,MIC,,50 µM
COc1cc(=O)oc(/C=C/C=C/C=C/C(C)=C/C2(C)OC(C)C(C)(O)C2O)c1C,BACTEC,H37Rv,MIC bound,,>12.8 µg/mL
NCC[C@H](O)C(=O)N[C@@H]1C[C@H](N)[C@@H](O[C@H]2O[C@H](CN)[C@@H](O)[C@H](O)[C@H]2O)[C@H](O)[C@H]1O[C@H]1O[C@H](CO)[C@@H](O)[C@H](N)[C@H]1O,,TN2793,MIC,,32 µg/mL
Nc1ccc(C(=O)Nc2cc(S(=O)(=O)O)cc3cc(S(=O)(=O)O)cc(S(=O)(=O)O)c23)cc1,,H37Rv,MIC,,>100 µg/mL
Cc1ccccc1C(C)(O)c1cnc(C)n1Cc1ccccc1,,H37Rv,MIC bound,,>6.25 µg/mL
Cc1ccc(S(=O)(=O)Nc2ccc(N)cc2)cc1,,H37Rv,MIC,,50 µg/mL
CCCCC(CC)CN1CN(CC(CC)CCCC)CC(C)(NCCNCCc2ccc(O)c(O)c2)C1,,,MIC,,12.5 µM
CC(=O)N1C(=O)C2(NCCCN2)c2ccccc21,BACTEC,H37Rv,MIC bound,,>12.8 µg/mL
C1COC(CNCCNCC23CC4CC(CC(C4)C2)C3)C1,,,MIC,,50 µM
CC(=O)c1ccc(I)cc1,,H37Rv,MIC,,100 µg/mL
CC(C)Cc1c(C#N)c(C#N)c(N)n1Cc1ccccc1,BACTEC,H37Rv,MIC bound,,>6.25 µg/mL
CC[C@@H](CO)NCCN[C@@H](CC)CO,broth dilution / resazurin,MDR15,MIC,,32 µg/mL
O=C(O)CCc1ccc(-c2ccccc2)n1-c1ccccc1,,H37Rv,MIC,,50 µg/mL
CC(C)(C)CC(C)(C)NCCNCC(c1ccccc1)c1ccccc1,,,MIC,,18.8 µM
O=C(O)/C=C\C(=O)Nc1ccccc1,,H37Rv,MIC,,100 µg/mL
CC1(C)[C@H]2CC[C@@H](CNCCNCCC(c3ccccc3)c3ccccc3)[C@@H]1C2,,,MIC,,6.25 µM
CCCCCCCCCCCCCCNC(=S)NCCCCCCCCCCCCCC,,H37Rv,MIC,,>100 µg/mL
CCCCCCCCCCCNCCNCCCc1ccccc1,,,MIC,,25 µM
Cc1ccc(C(C)C)cc1OCCOCC[n+]1ccccc1,,H37Rv,MIC,,>100 µg/mL
c1cc2c(cc1C1OCC3C(c4ccc5c(c4)OCO5)OCC13)OCO2,BACTEC,H37Rv,MIC bound,,>12.5 µg/mL
Cc1ccc(C(=O)c2ccccc2Cl)cc1,,H37Rv,MIC,,>100 µg/mL
CCCCCCC(C)c1ccc2c(c1)C(=O)c1nc3ccncc3c(=O)n1-2,resazurin,H37Rv,MIC bound,,<6.25 µg/mL
CCOC(=O)Nc1cc(NC(c2ccc(Cl)cc2)c2ccc(Cl)cc2)c2c(n1)NCN2,,H37Rv,EC50,,<12.5 µg/mL
c1ccc2c(c1)Oc1ccccc1S2,,H37Rv,MIC,,>100 µg/mL
CC1CCOn2c1nc1ccccc1c2=O,BACTEC,H37Rv,MIC bound,,>12.5 µg/mL
O=C(Nc1cc(S(=O)(=O)O)cc2cc(S(=O)(=O)O)cc(O)c12)c1ccc([N+](=O)[O-])cc1,,H37Rv,MIC,,>100 µg/mL
CO[C@H]1/C=C/O[C@@]2(C)Oc3c(C)c(O)c4c(=O)c(c5oc6cc(N7CCN(C(C)C)CC7)cc(=O)c6nc5c4c3=C2O)NC(=O)/C(C)=C\C=C\[C@H](C)[C@H](O)[C@@H](C)[C@@H](O)[C@@H](C)[C@H](OC(C)=O)[C@@H]1C,,3113 (rifampin-sensitive),MIC,,0.05 µg/mL
CC1=N/C(=C\c2ccco2)C(=O)O1,BACTEC,H37Rv,inhibition,12.5 µg/mL,-19%
NC(=O)c1ccccc1O,,H37Rv,MIC,,>100 µg/mL
CCOC(=O)Nc1cc2c(c(N)n1)N=C(c1ccccc1)[C@@H](CC)N2,,H37Rv,EC50,,>12.5 µg/mL
O=C(c1cccs1)N(C(=S)N1CCN(c2ccccc2)CC1)c1ccccc1,resazurin,H37Rv,MIC bound,,>6.25 µg/mL
Cc1cccc(CNCCNCCCCc2ccccc2)c1,,,MIC,,12.5 µM
C[C@H]1CC[C@@H]2[C@@H](C)[C@H]3[C@H](C[C@H]4[C@@H]5CC=C6C[C@@H](O)CC[C@]6(C)[C@H]5C[C@H](O)[C@]34C)N2C1,BACTEC,H37Rv,inhibition,12.8 µg/mL,9%
O=c1ccc(I)c[nH]1,,H37Rv,MIC,,>100 µg/mL
Cc1c(NC(=S)NC(=O)c2ccc([N+](=O)[O-])cc2)c(=O)n(-c2ccccc2)n1C,BACTEC,H37Rv,MIC bound,,>12.5 µg/mL
O=C(c1cc(Br)ccc1O)c1cc(Br)ccc1O,,H37Rv,MIC,,>100 µg/mL
CCC[CH2][Sn]([Cl])([CH2]CCC)[S]C(=S)NCCNC(=S)[S][Sn]([Cl])([CH2]CCC)[CH2]CCC,resazurin,H37Rv,MIC,,0.78 µg/mL
COc1ccccc1CCNCCNC(C)Cc1ccc(Cl)cc1,,,MIC,,50 µM
COc1c2c(nc3ccccc13)-c1cc3c(c(=O)n1C2)COC(=O)C3(O)CC(=O)N1CCOCC1,resazurin,H37Rv,inhibition,6.25 µg/mL,36%
O=C(O)C(=O)Nc1ccc(N=Nc2ccc([N+](=O)[O-])cc2Cl)c2c(O)cccc12,,H37Rv,MIC,,>100 µg/mL
O=C1C2=Cc3ccccc3OC2(O)Oc2ccccc21,BACTEC,H37Rv,inhibition,12.5 µg/mL,0%
CCOC(=O)Nc1cc2c(c(N)n1)N=C(CN(C)c1ccc(OC)cc1)CN2,,H37Rv,EC50,,>12.5 µg/mL
CC1=C(/C=C/C(C)=N/NC(=O)c2ccc[n+](C)c2)C(C)(C)CCC1.Cc1ccc(S(=O)(=O)[O-])cc1,BACTEC,H37Rv,MIC bound,,>12.5 µg/mL
O=C(O)c1cc2ccccc2[nH]1,,H37Rv,MIC,,50 µg/mL

Repeating the final 8 entries:

SMILES,method,strain,measure,dose,result
CCC[CH2][Sn]([Cl])([CH2]CCC)[S]C(=S)NCCNC(=S)[S][Sn]([Cl])([CH2]CCC)[CH2]CCC,resazurin,H37Rv,MIC,,0.78 µg/mL
COc1ccccc1CCNCCNC(C)Cc1ccc(Cl)cc1,,,MIC,,50 µM
COc1c2c(nc3ccccc13)-c1cc3c(c(=O)n1C2)COC(=O)C3(O)CC(=O)N1CCOCC1,resazurin,H37Rv,inhibition,6.25 µg/mL,36%
O=C(O)C(=O)Nc1ccc(N=Nc2ccc([N+](=O)[O-])cc2Cl)c2c(O)cccc12,,H37Rv,MIC,,>100 µg/mL
O=C1C2=Cc3ccccc3OC2(O)Oc2ccccc21,BACTEC,H37Rv,inhibition,12.5 µg/mL,0%
CCOC(=O)Nc1cc2c(c(N)n1)N=C(CN(C)c1ccc(OC)cc1)CN2,,H37Rv,EC50,,>12.5 µg/mL
CC1=C(/C=C/C(C)=N/NC(=O)c2ccc[n+](C)c2)C(C)(C)CCC1.Cc1ccc(S(=O)(=O)[O-])cc1,BACTEC,H37Rv,MIC bound,,>12.5 µg/mL
O=C(O)c1cc2ccccc2[nH]1,,H37Rv,MIC,,50 µg/mL

Neighbouring rows are from separate reports. Blank or dashed fields: not listed here. ECn is the concentration giving n% inhibition of infection, replication or growth. Inhibition is in % at the dose shown (toxicity tests: loss of growth or viability).